Results of unrelated studies side by side (data: NIAID ChemDB).

All rows: tests in culture; species: HIV-1; cells: MT-4; read-out: EC50

Blank or dashed fields: not listed here. Neighbouring rows are from separate reports. Two numbers with a dash give a range or band. ECn is the concentration giving n% inhibition of infection, replication or growth.

| smiles | strain or isolate | mutations | read by | conditions | value |
|---|---|---|---|---|---|
| CC(C)CN(C[C@@H](O)[C@H](Cc1ccccc1)NC(=O)OC1COC2OCCC12)S(=O)(=O)c1ccc2nc(N)[nH]c2c1 | LAI WT |  | cytopathic effect / MTT |  | 5.012 µM |
| Cc1cc(C#N)cc(C)c1Oc1nc(NC2CCC(NCc3ccc([N+](=O)[O-])cc3)CC2)nc2ccsc12 | IIIB | NNRTI-resistant (RT Y188L) | MTT |  | 11.1 µM |
| O=c1c2ccccc2sn1/N=C/c1ccc2c(c1)OCO2 |  | Y181C | MTT |  | >17 µM |
| CC(C)n1c(=O)c(O)c2n(c1=O)CCN(Cc1ccccn1)C2=O |  |  | p24 |  | <10 µM |
| Cc1cc(/C=C/C#N)cc(C)c1Oc1nc(NC2CCN(Cc3ccc(C#N)cc3)CC2)nc2ccsc12 | IIIB | NNRTI-resistant (RT F227L V106A) | MTT |  | 0.0227 µM |
| Cc1ccc(CN2CCN([C@H](C(=O)N[C@@H](Cc3ccccc3)[C@H](O)CN(CC(C)C)S(=O)(=O)c3ccc(/C=N/O)cc3)C(C)(C)C)C2=O)cn1 |  |  | cytopathic effect / MTT | 50% human serum | 0.012 µM |
| Cc1cccnc1C(=O)NC(C)(C)C(=O)N[C@@]12CC[C@]3(C)[C@H](CC[C@@H]4[C@@]5(C)CC[C@H](OC(=O)C6C[C@@H](C(=O)O)C6(C)C)C(C)(C)[C@@H]5CC[C@]43C)C1=C(C(C)C)C(=O)C2 | NL4-3 |  | p24 |  | <0.005 µM |
| N#CC1=CC2C(c3ccccc3N2CCCCN2CCCC2)N(c2ccc([N+](=O)[O-])cc2)C1=O | LAI |  | cytopathic effect / MTT |  | <1 µM |
| CCc1c(Cc2ccccc2C)n(COCC#Cc2ccccc2)c(=O)[nH]c1=O | IIIB | Y181C | MTT |  | >26 µM |
| Cc1cc(/C=C/C#N)cc(C)c1Oc1nc(NC2CCN(Cc3ccccc3F)CC2)nc2ccsc12 | RES056 |  | MTT |  | 0.177 µM |
| N#CC1=CC2C(c3ccccc3N2CCCCN2CCOCC2)N(c2ccc([N+](=O)[O-])cc2)C1=O | LAI |  | cytopathic effect / MTT |  | <1 µM |
| C=CCOCn1c(Cc2cccc(F)c2)c(CC)c(=O)[nH]c1=O | EFV-resistant (K103R V179D P225H) |  | MTT |  | 60 µM |
| Cc1ccc2sn(/N=C/c3ccc([N+](=O)[O-])cc3)c(=O)c2c1 |  | Y181C | MTT |  | >100 µM |
| CC(C)C1=C2[C@H]3CC[C@@H]4[C@@]5(C)CC[C@H](OC(=O)C6C[C@@H](C(=O)O)C6(C)C)C(C)(C)[C@@H]5CC[C@@]4(C)[C@]3(C)CC[C@@]2(NC(=O)C2(NC(=O)c3ccc(F)cc3)CC2)CC1=O | NL4-3 |  | p24 |  | 0.00501–0.01 µM |
| CCc1c(Cc2cc(C)cc(C)c2)n(COCC#Cc2cccc(C#N)c2)c(=O)[nH]c1=O | IIIB | Y181C | MTT |  | 5 µM |
| CCC(C)[C@@H](C(=O)N[C@@H](Cc1ccccc1)[C@H](O)CN(CC1CCCC1)S(=O)(=O)c1ccc(/C=N/O)cc1)N1CCN(Cc2cccnc2)C1=O |  |  | cytopathic effect / MTT | 50% human serum | 0.011 µM |
| C=C(C)COCn1c(Cc2c(F)c(F)cc(F)c2F)c(CC)c(=O)[nH]c1=O | A17 | K103N + Y181C | MTT |  | >38 µM |
| Cc1cnc(C(=O)NC(C)(C)C(=O)N[C@@]23CC[C@]4(C)[C@H](CC[C@@H]5[C@@]6(C)CC[C@H](OC(=O)C7C[C@@H](C(=O)O)C7(C)C)C(C)(C)[C@@H]6CC[C@]54C)C2=C(C(C)C)C(=O)C3)cn1 | NL4-3 |  | p24 |  | <0.005 µM |
| CC(C)CN(C[C@@H](O)[C@H](Cc1ccccc1)NC(=O)O[C@H]1CO[C@H]2OCC[C@H]21)S(=O)(=O)c1ccc2ncn(Cc3cncn3C)c2c1 | LAI WT |  | cytopathic effect / MTT |  | 0.631 µM |
| Cc1nc2c(c(C)c(C)n2CCC#N)c(-c2ccc(Cl)cc2)c1[C@H](OC(C)(C)C)C(=O)O | IIIB |  | MTT |  | 0.00529 µM |
| COP(=O)(c1cc(C)cc(CCC#N)c1)c1c(C(N)=O)[nH]c2ccc(Cl)c(F)c12 | NL4-3 |  | p24 / ELISA |  | 0.002 µM |
| Cc1cc(C#N)cc(C)c1Oc1nc(NC2CCN(Cc3ccc(S(N)(=O)=O)cc3)CC2)nc2sccc12 | IIIB | NNRTI-resistant (RT E138K) | MTT |  | 0.0076 µM |
| CC(C)C1=C2[C@H]3CC[C@@H]4[C@@]5(C)CC[C@H](OC(=O)C6C[C@@H](C(=O)O)C6(C)C)C(C)(C)[C@@H]5CC[C@@]4(C)[C@]3(C)CC[C@@]2(NC(=O)C2(NC(=O)c3cccnc3N3CCOCC3)CCC2)CC1=O | NL4-3 | V7A | p24 |  | 0.01001–0.05 µM |
| CCc1c(Cc2cc(C)cc(C)c2)n(COCCc2ccccc2)c(=O)[nH]c1=O | EFVR | K103R/V179D/P225H | MTT |  | 20 µM |
| COc1ccc(/C=N/n2sc3ccccc3c2=O)cc1 |  |  | MTT |  | >19 µM |
| CC(C)c1nc(-c2ccc(N3C(=O)C=CC4C3c3ccccc3N4C)cc2)no1 | LAI |  | cytopathic effect / MTT |  | 1–32 µM |
| Cc1nc2c(c(C)c(C)n2Cc2ccncc2)c(-c2ccc(Cl)cc2)c1C(OC(C)(C)C)C(=O)O | IIIB |  | MTT |  | 0.671 µM |
| CCc1c(Cc2ccc(C)cc2)n(COCCc2ccccc2)c(=O)[nH]c1=O | IIIB |  | MTT |  | >60 µM |
| CC(C)CN(C[C@@H](O)[C@H](Cc1ccccc1)NC(=O)OCc1cccnc1)S(=O)(=O)c1ccc2nc(N)[nH]c2c1 | LAI WT |  | cytopathic effect / MTT |  | 1.585 µM |
| CC(C)C1=C2[C@H]3CC[C@@H]4[C@@]5(C)CC[C@H](OC(=O)C6C[C@@H](C(=O)O)C6(C)C)C(C)(C)[C@@H]5CC[C@@]4(C)[C@]3(C)CC[C@@]2(NC(=O)C(C)(C)NC(=O)c2nccn2C)CC1=O | NL4-3 |  | p24 |  | 0.00501–0.01 µM |
| CC1(C)CC=C(c2cn(-c3nccc(C(=O)NC4CCC(N5CC6CCC(C5)O6)CC4)n3)c3ccc(F)c([C@H](OC(C)(C)C)C(=O)O)c23)CC1 | NL4-3 | E170K | luminescence |  | 0.0037 µM |
| CC(C)n1c(=O)c(O)c2n(c1=O)CCN(Cc1cc3ccccc3cn1)C2=O |  |  | p24 |  | <10 µM |
| N#Cc1cc(Cl)cc(Oc2c(Br)ccc(CC(=O)Nc3ccc(S(N)(=O)=O)cc3Cl)c2F)c1 |  | E138K/Y181I |  |  | 0.002 µM |
| CCc1c(Cc2cc(C)cc(C)c2)n(COCC#Cc2ccc(O[Si](c3ccccc3)(c3ccccc3)C(C)(C)C)cc2)c(=O)[nH]c1=O | IIIB | WT | MTT |  | 1.7 µM |
| COc1cccc2c1nc(-c1ccccc1F)n2Cc1cccc(F)c1F | IIIB |  |  |  | 0.0055 µg/mL |
| Cc1cccc(C)c1OCC(=O)N[C@@H](Cc1ccccc1)[C@H](O)CN(CC(C)C)S(=O)(=O)c1ccc2nc[nH]c2c1 | LAI WT |  | cytopathic effect / MTT |  | 0.079 µM |
| CCC(C)[C@@H](C(=O)N[C@@H](Cc1ccccc1)[C@H](O)CN(CC(C)C)S(=O)(=O)c1ccc(/C=N/O)cc1)N1CCN(Cc2cnccc2C)C1=O |  |  | cytopathic effect / MTT |  | 0.006 µM |
| Cc1cc(C#N)cc(C)c1Oc1nc(NC2CCN(Cc3ccc(S(N)(=O)=O)cc3)CC2F)nc2ccsc12 | IIIB | NNRTI-resistant (RT F227L V106A) | MTT |  | 0.00873 µM |
| Cc1ccc2sn(/N=C/c3ccccc3)c(=O)c2c1 |  |  | MTT |  | >33 µM |
| Cc1ccc(C(=O)NC2(C(=O)N[C@@]34CC[C@]5(C)[C@H](CC[C@@H]6[C@@]7(C)CC[C@H](OC(=O)C8C[C@@H](C(=O)O)C8(C)C)C(C)(C)[C@@H]7CC[C@]65C)C3=C(C(C)C)C(=O)C4)CC2)cn1 | NL4-3 | V7A | p24 |  | <0.01 µM |
| Cc1nc2ccccc2c(-c2cc(F)c3c(c2C)CCCO3)c1[C@H](OC(C)(C)C)C(=O)O | NL4-3 | E170G | luminescence |  | 0.068 µM |
| O=C1c2c(O)c(=O)n(CC3COCCO3)c(=O)n2CCN1Cc1ccc(F)cc1 |  |  | p24 |  | <10 µM |
| Cc1cn([C@H]2C=C[C@@H](CO)O2)c(=O)[nH]c1=O | HXB2 (RT T215 V75A K65R) Recombinant |  | cytopathic effect / MTT |  | 0.62 µM |
| COc1cccc2c1nc(-c1ccccc1F)n2Cc1cccc(Cl)c1 | IIIB |  |  |  | 0.016 µg/mL |
| CC(C)n1c(=O)c(O)c2n(c1=O)C(COCc1ccccc1)CN(Cc1ccc(F)cc1)C2=O |  |  | p24 |  | <10 µM |
| C=CCOCn1c(Cc2c(F)c(F)cc(F)c2F)c(CC)c(=O)[nH]c1=O | EFV-resistant (K103R V179D P225H) |  | MTT |  | >100 µM |
| CCc1c(Cc2cc(C)cc(C)c2)n(COCC2CC2)c(=O)[nH]c1=O | EFVR | K103R/V179D/P225H | MTT |  | >51 µM |
| Cc1ccc2sn(/N=C/c3ccc(O)c(O)c3)c(=O)c2c1 |  |  | MTT |  | >49 µM |
| CCCCN(CCCC)CCCn1c(=O)c(O)c2n(c1=O)CCN(Cc1ccc(F)cc1)C2=O |  |  | p24 |  | <10 µM |
| CC(C)[C@H](NC(=O)OCc1ccccn1)C(=O)N[C@@H](Cc1ccccc1)[C@@H](O)C[C@H](Cc1ccccc1)NC(=O)OCc1cccnc1 | NL4-3 | PR-M46I L63P V82T | p24 |  | <3 µM |
| Cc1ccc2sn(/N=C/c3cccc(F)c3)c(=O)c2c1 |  | EFV-resistant (K103 V179D P225H) | MTT |  | >30 µM |
| CCOCn1c(Cc2ccc(C)cc2)c(CC)c(=O)[nH]c1=O | EFVR | K103R/V179D/P225H | MTT |  | >100 µM |
| Cc1nc2c(c(C)c(C)n2CC2C(=O)c3ccccc3C2=O)c(-c2ccc(Cl)cc2)c1C(OC(C)(C)C)C(=O)O | IIIB |  | MTT |  | 5.51 µM |
| Cc1cc(/C=C/C#N)cc(C)c1Oc1nc(NC2CCN(Cc3cccc(C(N)=O)c3)CC2)nc2ccsc12 | IIIB | NNRTI-resistant (RT K103N) | MTT |  | 0.00297 µM |
| CCC(C)[C@@H](C(=O)N[C@@H](Cc1ccccc1)[C@H](O)CN(CC(C)C)S(=O)(=O)c1ccc(/C=N/O)cc1)N1CC(=O)N(Cc2ccccn2)C1=O | A17 (LPV-resistant) | PR-L10F V32I M46I I47V Q68E I84V | cytopathic effect / MTT |  | 0.006 µM |
| COc1cc(Cn2c(C)c(C)c3c(-c4ccc(Cl)cc4)c(C(OC(C)(C)C)C(=O)O)c(C)nc32)cc(Cl)n1 | IIIB |  | MTT |  | 0.111 µM |
| CCc1c(Cc2ccccc2)n(COCC2CC2)c(=O)[nH]c1=O | N119 | Y181C | MTT |  | >100 µM |
| COc1ccc(S(=O)(=O)N(CC(C)C)C[C@@H](O)[C@H](Cc2ccccc2)NC(=O)[C@H](C(C)C)N2CC(=O)N(Cc3csc(C)n3)C2=O)cc1 |  |  | cytopathic effect / MTT |  | 0.005 µM |
| COc1cccc2c1nc(-c1ccccc1F)n2Cc1ccc(C(C)(C)C)cc1 | IIIB |  |  |  | >2.5 µg/mL |
| CN1c2ccccc2C2C1C=CC(=O)N2c1ccc(-c2noc(-c3ccco3)n2)cc1 | LAI |  | cytopathic effect / MTT |  | 1–32 µM |
| C#CCOCn1c(Cc2cc(F)ccc2F)c(CC)c(=O)[nH]c1=O | N119 (Y181C) |  | MTT |  | 17 µM |
| CN1C(C)(C)CC(n2c(=O)c(O)c3n(c2=O)CCN(Cc2ccc(F)cc2)C3=O)CC1(C)C |  |  | p24 |  | <10 µM |
| COc1cccc2c1nc(-c1ccccc1F)n2Cc1ccco1 | IIIB |  |  |  | 0.015 µg/mL |
| CCc1c(Cc2cc(C)cc(C)c2)n(COC/C(=C/Sc2ccccc2)Sc2ccccc2)c(=O)[nH]c1=O | IIIB | WT | MTT |  | 0.06 µM |
| C=CCOCn1c(Cc2cccc(C(F)(F)F)c2)c(CC)c(=O)[nH]c1=O | N119 (Y181C) |  | MTT |  | 3.2 µM |

A second listing of 8 rows from above:

| smiles | strain or isolate | mutations | read by | conditions | value |
|---|---|---|---|---|---|
| CCc1c(Cc2ccc(C)cc2)n(COCCc2ccccc2)c(=O)[nH]c1=O | IIIB |  | MTT |  | >60 µM |
| Cc1nc2c(c(C)c(C)n2CCC#N)c(-c2ccc(Cl)cc2)c1[C@H](OC(C)(C)C)C(=O)O | IIIB |  | MTT |  | 0.00529 µM |
| Cc1nc2c(c(C)c(C)n2Cc2ccncc2)c(-c2ccc(Cl)cc2)c1C(OC(C)(C)C)C(=O)O | IIIB |  | MTT |  | 0.671 µM |
| CCOCn1c(Cc2ccc(C)cc2)c(CC)c(=O)[nH]c1=O | EFVR | K103R/V179D/P225H | MTT |  | >100 µM |
| COc1cccc2c1nc(-c1ccccc1F)n2Cc1cccc(F)c1F | IIIB |  |  |  | 0.0055 µg/mL |
| CC(C)c1nc(-c2ccc(N3C(=O)C=CC4C3c3ccccc3N4C)cc2)no1 | LAI |  | cytopathic effect / MTT |  | 1–32 µM |
| CC(C)n1c(=O)c(O)c2n(c1=O)CCN(Cc1ccccn1)C2=O |  |  | p24 |  | <10 µM |
| CCC(C)[C@@H](C(=O)N[C@@H](Cc1ccccc1)[C@H](O)CN(CC1CCCC1)S(=O)(=O)c1ccc(/C=N/O)cc1)N1CCN(Cc2cccnc2)C1=O |  |  | cytopathic effect / MTT | 50% human serum | 0.011 µM |